Pooled drug test results. Numbers come from NIAID ChemDB, via PubChem.

All rows: target-level tests; species: Mycobacterium tuberculosis

ICn is the concentration giving n% inhibition.

NC1CCN(c2c(F)cc3c(=O)c(C(=O)O)cn(C4CC4)c3c2Cl)C1 ; protein: DNA gyrase ; read by: gel ; endpoint: IC50 ; strain or isolate: H37Rv ; result: 2.5 µg/mL
CCOc1ccc2cc(-n3nncc3COc3nc(-c4ccccn4)sc3C(=O)OC)c(=O)oc2c1 ; protein: DNA gyrase ; read by: gel / absorbance ; endpoint: IC50 ; result: 5.5 µM
O=c1ccn([C@H]2C[C@H](O)[C@@H](CO)O2)c(=O)[nH]1 ; protein: Thymidine monophosphate kinase ; endpoint: IC50 ; result: 1020 µM
N[C@@H]1CN(c2c(F)cc3c(=O)c(C(=O)O)cn([C@@H]4C[C@@H]4F)c3c2Cl)CC12CC2 ; protein: Gyrase (V90A mutant) ; endpoint: IC50 ; result: 22.1 µg/mL
O=C(Nc1ccc(Br)cc1)C1CCC(S(=O)(=O)c2cccnc2)CC1 ; dose: 100 µM ; protein: Lipoamide dehydrogenase ; read by: absorbance ; endpoint: inhibition ; strain or isolate: H37Rv ; result: 24%
COc1cc(C[C@@H](C)[C@@H](C)Cc2ccc(O)c(OC)c2)ccc1O ; protein: Rv3273 ; endpoint: Ki ; strain or isolate: Rv3273 ; result: 9.1 µM
COc1c(N2CCNC(C)C2)c(F)cc2c(=O)c(C(=O)O)cn(C3CC3)c12 ; protein: DNA gyrase ; read by: gel ; endpoint: IC50 ; strain or isolate: H37Rv ; result: 3 µg/mL
O=C1N=C2C(C(=O)N=C3SC([N+](=O)[O-])=CN32)C(c2ccc([N+](=O)[O-])cc2)N1 ; dose: 100 µM ; protein: CysK1 ; read by: absorbance ; endpoint: inhibition ; result: 45.3%
Cc1c(F)c(N2CCNC(C)C2)cc2c1c(=O)c(C(=O)O)cn2C1CC1 ; protein: DNA gyrase ; read by: gel ; endpoint: IC50 ; strain or isolate: H37Rv ; result: 16 µg/mL
COC(=O)c1sc(-c2ccccn2)nc1OCc1cnnn1-c1cc2ccc(O)cc2oc1=O ; protein: DNA gyrase ; read by: gel / absorbance ; endpoint: IC50 ; result: 15.6 µM
C[C@H]1NCc2cc(-c3ccc4c(=O)c(C(=O)O)cn(C5CC5)c4c3OC(F)F)ccc21 ; protein: DNA gyrase ; read by: gel ; endpoint: IC50 ; strain or isolate: H37Rv ; result: 13 µg/mL
Nc1ccc2cc(-n3nncc3COc3nc(-c4ccccc4)sc3C(=O)O)c(=O)oc2c1 ; protein: DNA gyrase ; read by: gel / absorbance ; endpoint: IC50 ; result: 0.71 µM
Cc1cc(NC(=O)CN(C)S(=O)(=O)c2cc(Br)cnc2N)ccc1Br ; dose: 100 µM ; protein: Lipoamide dehydrogenase ; read by: absorbance ; endpoint: inhibition ; strain or isolate: H37Rv ; result: 100%
O=C1N=C2SC([N+](=O)[O-])=CN2C2=NC(=S)NC(c3ccccc3)C12 ; dose: 100 µM ; protein: CysK1 ; read by: absorbance ; endpoint: inhibition ; result: 9.6%
O=c1[nH]c(=O)n([C@H]2C[C@H](O)[C@@H](CO)O2)cc1Br ; protein: Thymidine monophosphate kinase ; endpoint: IC50 ; result: 5 µM
CCCCN(C)C(=O)CCNS(=O)(=O)c1cc(Br)cnc1N ; dose: 100 µM ; protein: Lipoamide dehydrogenase ; read by: absorbance ; endpoint: inhibition ; strain or isolate: H37Rv ; result: 18%
COC(=O)c1sc(-c2ccncc2)nc1OCc1cnnn1-c1cc2ccc(O)cc2oc1=O ; protein: DNA gyrase ; read by: gel / absorbance ; endpoint: IC50 ; result: 11.4 µM
NC1[C@H]2CN(c3nc4c(cc3F)c(=O)c(C(=O)O)cn4-c3ccc(F)cc3F)C[C@@H]12 ; protein: DNA gyrase ; read by: gel ; endpoint: IC50 ; strain or isolate: H37Rv ; result: 15 µg/mL
O=C1N=C2C(C(=O)N=C3SC([N+](=O)[O-])=CN32)C(c2ccc(F)cc2)N1 ; dose: 100 µM ; protein: CysK1 ; read by: absorbance ; endpoint: inhibition ; result: 0%
COc1cc(/C=C2\SC(=S)N(CCC(=O)NNC(=O)c3ccccc3)C2=O)cc(OC)c1OC ; protein: Pantothenate synthetase ; read by: absorbance ; endpoint: IC50 ; result: 1.39 µM
Nc1ccc2cc(-n3nncc3COc3nc(-c4ccncc4)sc3C=O)c(=O)oc2c1 ; protein: DNA gyrase ; read by: gel / absorbance ; endpoint: IC50 ; result: 11.8 µM
O=c1[nH]c(=O)n([C@H]2C[C@H](O)[C@@H](CO)O2)cc1Cl ; protein: Thymidine monophosphate kinase ; endpoint: IC50 ; result: 10 µM
Nc1ccc2cc(-n3nncc3COc3nc(-c4ccccn4)sc3C=O)c(=O)oc2c1 ; protein: DNA gyrase ; read by: gel / absorbance ; endpoint: IC50 ; result: 0.44 µM
O=C1N=C2SC([N+](=O)[O-])=CN2C2=NC(=S)NC(c3ccc(F)cc3)C12 ; dose: 100 µM ; protein: CysK1 ; read by: absorbance ; endpoint: inhibition ; result: 40%
COc1cc(/C=C2\SC(=S)N(CCC(=O)NNC(=O)c3ccncc3)C2=O)cc(OC)c1OC ; protein: Pantothenate synthetase ; read by: absorbance ; endpoint: IC50 ; result: 0.35 µM
Cc1ccc(C2NC(=S)N=C3C2C(=O)N=C2SC([N+](=O)[O-])=CN23)cc1 ; dose: 100 µM ; protein: CysK1 ; read by: absorbance ; endpoint: inhibition ; result: 0%
O=C(CCN1C(=O)/C(=C/c2ccc([N+](=O)[O-])cc2)SC1=S)NNC(=O)c1cccnc1 ; protein: Pantothenate synthetase ; read by: absorbance ; endpoint: IC50 ; result: 2.51 µM
[N-]=[N+]=N[C@H]1C[C@H](n2cc(Br)c(=O)[nH]c2=O)O[C@@H]1CO ; protein: Thymidine monophosphate kinase ; endpoint: IC50 ; result: 10.5 µM
CC[C@@H](CO)NCCN[C@@H](CC)CO ; protein: Pantothenate synthetase ; read by: absorbance ; endpoint: IC50 ; result: >25 µM
O=C1N=C2SC([N+](=O)[O-])=CN2C2=NC(=S)NC(c3ccccc3[N+](=O)[O-])C12 ; dose: 100 µM ; protein: CysK1 ; read by: absorbance ; endpoint: inhibition ; result: 88.7%
O=C(CCN1C(=O)/C(=C/c2ccc3c(c2)OCO3)SC1=S)NNC(=O)c1ccccc1 ; protein: Pantothenate synthetase ; read by: absorbance ; endpoint: IC50 ; result: 5.86 µM
CN1CCN(S(=O)(=O)c2cc(Br)cnc2N)CC1 ; dose: 100 µM ; protein: Lipoamide dehydrogenase ; read by: absorbance ; endpoint: inhibition ; strain or isolate: H37Rv ; result: 10%
COc1cc(/C=C2\SC(=S)N(CCC(=O)NNC(=O)c3cccc4ccccc34)C2=O)cc(OC)c1OC ; protein: Pantothenate synthetase ; read by: absorbance ; endpoint: IC50 ; result: 1.14 µM
CC(=O)N[C@H]1C(O)O[C@H](COC(C)=O)[C@@H](OC(C)=O)[C@H]1O[C@@H]1O[C@@H](C)C[C@@H](OCc2ccccc2)[C@H]1OCc1ccccc1 ; protein: Galactosyltransferase ; endpoint: IC50 ; result: 410 µg/mL
O=C(CCN1C(=O)/C(=C/c2ccc([N+](=O)[O-])cc2)SC1=S)NNC(=O)c1ccncc1 ; protein: Pantothenate synthetase ; read by: absorbance ; endpoint: IC50 ; result: 0.59 µM
CCOc1ccc2cc(-n3nncc3COc3nc(-c4ccncc4)sc3C(=O)O)c(=O)oc2c1 ; protein: DNA gyrase ; read by: gel / absorbance ; endpoint: IC50 ; result: 9.7 µM
COc1cc(/C=C2\SC(=S)N(CCC(=O)NNC(=O)c3cccnc3)C2=O)cc(OC)c1OC ; protein: Pantothenate synthetase ; read by: absorbance ; endpoint: IC50 ; result: 2.12 µM
Nc1ccc2cc(-n3nncc3COc3nc(-c4ccncc4)sc3C(=O)O)c(=O)oc2c1 ; protein: DNA gyrase ; read by: gel / absorbance ; endpoint: IC50 ; result: 1.56 µM

Again, the opening 2 rows:

{"compound": "NC1CCN(c2c(F)cc3c(=O)c(C(=O)O)cn(C4CC4)c3c2Cl)C1", "protein": "DNA gyrase", "read by": "gel", "endpoint": "IC50", "strain or isolate": "H37Rv", "result": "2.5 µg/mL"}
{"compound": "CCOc1ccc2cc(-n3nncc3COc3nc(-c4ccccn4)sc3C(=O)OC)c(=O)oc2c1", "protein": "DNA gyrase", "read by": "gel / absorbance", "endpoint": "IC50", "result": "5.5 µM"}

Rows are shuffled and stem from different studies. Percent inhibition refers to the dose given; in toxicity tests it is the harm to the cells.